A mixed list of measured activities; the numbers were collected in NIAID ChemDB.

All rows: tests in culture; agent: HIV-1

ECn: concentration that inhibits the pathogen or its effect by n%.

structure | strain or isolate | mutations | cells | method | read-out | result
Cc1cc(S(N)(=O)=O)ccc1NC(=O)COc1ccc(Cl)cc1C(=O)c1cc(F)cc(C#N)c1 | HXB2 | RT-K103N | HeLa + HELA CD4+ | β-galactosidase | fold resistance | ~1
COc1ccc(S(=O)(=O)N(Cc2ccccc2)CC(O)CN(CC2CCCC2)S(=O)(=O)c2ccccc2)cc1 | IIIB |  | CEM | p24 | EC90 | 1 µM
CC(=O)N(C)C1CN(C)CCn2c1nc(C(=O)NCc1ccc(F)cc1)c(O)c2=O |  |  | MT-4 | p24 | EC95 | <1 µM
COc1ccnc2[nH]cc(C(=O)C(=O)N3C4CC3CN(C(=O)c3ccccc3)C4)c12 | AC10 |  | TZM-bl | luciferase | EC90 | 250 µM
O=C1Nc2ccc(F)c(F)c2[C@@](/C=C/C2CC2)(C(F)(F)F)N1 |  | RT-K103N V108I |  |  | fold resistance | 116
COc1ccc(S(=O)(=O)N(CC2CCCC2)C[C@@H](O)CN(CCc2ccccc2)C(=O)OCc2ccccc2)cc1 | IIIB |  | CEM | p24 | EC90 | 1 µM
Cc1cc(C)cc(C(=O)c2cc(Cl)ccc2OCC(=O)Nc2ccc(S(N)(=O)=O)cc2C)c1 | HXB2 (RT-K103N Y181C) Recombinant | RT-K103N Y181C | HeLa + HELA CD4+ | β-galactosidase | fold resistance | ~1
CC(C)(C)CS(=O)(=O)N(CC1CCCC1)C[C@@H](O)CN(CCc1ccccc1)C(=O)c1ccccc1 | IIIB |  | CEM | p24 | EC90 | 1 µM
Cn1cnc(CN2CCn3c(nc(C(=O)NCc4ccc(F)cc4)c(O)c3=O)C2(C)C)n1 |  |  | MT-4 | p24 | EC95 | <1 µM
CC(C)=CCOc1cc(NC(=S)c2ccoc2C)ccc1Cl | UC38-RS (RT-Y181C) | RT-Y181C | CEM + CEM-SS | cytopathic effect / XTT | fold resistance | 90
O=C1Nc2ccc(Cl)cc2[C@@](/C=C/C2CC2)(C(F)(F)F)N1 |  | RT-Y188C |  |  | fold resistance | <6
COc1ccccc1C(=O)Nc1ccc(Cl)c(C(=O)OC(C)C)c1 | UC82-R (RT-Y181C) | RT-Y181C | CEM + CEM-SS | cytopathic effect / XTT | fold resistance | 10.9
CCc1cc(C#N)cc(C(=O)c2cc(Cl)ccc2OCC(=O)Nc2ccc(S(N)(=O)=O)cc2C)c1 | HXB2 | RT-L100I | HeLa + HELA CD4+ | β-galactosidase | fold resistance | ~1
CN1Cn2c(nc(C(=O)NCc3ccc(F)cc3)c(O)c2=O)C12CCCCC2 |  |  | MT-4 | p24 | EC95 | <1 µM
CC(C)CN(CCC(O)CN1CCCC[C@H]1C(=O)NC(C)(C)C)S(=O)(=O)c1ccccc1 | IIIB |  | CEM | p24 | EC90 | 1 µM
COc1ccnc2[nH]cc(C(=O)C(=O)N3C4CCC3CN(C(=O)c3ccccc3)C4)c12 | SF162 |  | TZM-bl | luciferase | EC99 | 88 µM
O=C(COc1ccc(Cl)cc1C(=O)c1ccco1)Nc1ccc2cn[nH]c2c1 | HXB2 (RT-K103N Y181C) Recombinant | RT-K103N Y181C | HeLa + HELA CD4+ | β-galactosidase | fold resistance | ~100
CC(C)=CCOc1cc(NC(=S)c2ccsc2C)ccc1Cl | Calanolide A-resistant (RT T139I) | RT-T139I | CEM + CEM-SS | cytopathic effect / XTT | EC50 | 0.03 µM
C/C=C/CSc1cc(NC(=S)c2ccsc2C)ccc1Cl | NL4-3 | RT-Y181C | CEM + CEM-SS | p24 | fold resistance | 6
Cc1cc(OCCCS(N)(=O)=O)ccc1NC(=O)COc1ccc(Cl)cc1C(=O)c1cc(F)cc(C(F)(F)F)c1 | HXB2 | RT-P236L | HeLa + HELA CD4+ | β-galactosidase | fold resistance | ~1
O=C(c1ccccc1)N(CCc1ccccc1)C[C@H](O)CN(CC1CCCC1)S(=O)(=O)C1CCCOC1 | IIIB |  | CEM | p24 | EC90 | 1 µM
Cc1cc(C#N)cc(C(=O)c2cc(Cl)ccc2OCC(=O)Nc2cnc(S(N)(=O)=O)cc2C)c1 | HXB2 | RT-G190A | HeLa + HELA CD4+ | β-galactosidase | fold resistance | ~1
COc1ccc(S(=O)(=O)N(CC(C)C)CC(O)CCN2CSCC2C(=O)NC(C)(C)C)cc1 | IIIB |  | CEM | p24 | EC90 | 1 µM
Cc1ccc(C)n1-c1ccc(C(=O)O)c(O)c1 | CMU02 X4 CLADE EA |  | PBMC/5.25M7 | luciferase / cell fusion | EC90 | 85.2 µM
COc1ccc(S(=O)(=O)N(CC(O)CN2C(=O)OC[C@@H]2Cc2ccccc2)CC2CCCC2)cc1 | IIIB |  | CEM | p24 | EC90 | 1 µM
CSCC1NCCn2c1nc(C(=O)NCc1ccc(F)cc1)c(O)c2=O |  |  | MT-4 | p24 | EC95 | <1 µM
Cc1cc(S(N)(=O)=O)ccc1NC(=O)COc1ccc(Cl)cc1C(=O)c1cccc(C#N)c1 | HXB2 (RT-K103N G190A) Recombinant | RT-K103N G190A | HeLa + HELA CD4+ | β-galactosidase | fold resistance | ~10
COc1ccc(S(=O)(=O)N(CC(C)C)C[C@@H](O)CC(=O)N2CCN(C(=O)OCc3ccccc3)C[C@H]2C(=O)NC(C)(C)C)cc1 | IIIB |  | CEM | p24 | EC90 | 1 µM
CCC(=O)c1ccc(F)c([C@@H]2C[C@@H]2NC(=O)Nc2ccc(C#N)cn2)c1O | LAI | NNRTI-resistant (RT V179D) | TZM-bl | β-galactosidase / luminescence | fold resistance | 1.1
CN1CCn2c(nc(C(=O)NCc3ccc(F)cc3)c(O)c2=O)C(NCC2CCCCC2)C1 |  |  | MT-4 | p24 | EC95 | <50 µM
COc1ccc(S(=O)(=O)N(CC(C)C)C[C@@H](O)CCN(CC2CCCC2)S(=O)(=O)c2nccs2)cc1 | IIIB |  | CEM | p24 | EC90 | 1 µM

Repeating the final 3 entries:

CCC(=O)c1ccc(F)c([C@@H]2C[C@@H]2NC(=O)Nc2ccc(C#N)cn2)c1O ; strain or isolate: LAI ; mutations: NNRTI-resistant (RT V179D) ; cells: TZM-bl ; method: β-galactosidase / luminescence ; read-out: fold resistance ; result: 1.1
CN1CCn2c(nc(C(=O)NCc3ccc(F)cc3)c(O)c2=O)C(NCC2CCCCC2)C1 ; cells: MT-4 ; method: p24 ; read-out: EC95 ; result: <50 µM
COc1ccc(S(=O)(=O)N(CC(C)C)C[C@@H](O)CCN(CC2CCCC2)S(=O)(=O)c2nccs2)cc1 ; strain or isolate: IIIB ; cells: CEM ; method: p24 ; read-out: EC90 ; result: 1 µM

Blank or dashed fields: not listed here. Lines come from different laboratories, so protocols vary. Fold resistance has wild type as its base.